Structures are written as SMILES.

This series deals with Chinese Hamster Ovary (CHO) cells. Kind of series: MTT in vitro cytotoxicity assay. In kind it is cell-based. Conditions: ratio CHO vs NF54. As to the method: Test samples were screened for in vitro cytotoxicity against a mammalian cell-line, Chinese Hamster Ovary (CHO), using the 3-(4,5-dimethylthiazol-2-yl)-2,5-diphenyltetrazoliumbromide (MTT)-assay. The MTT-assay is used as a colorimetric assay for cellular growth and survival, and compares well with other available assays. The tetrazolium salt MTT was used to measure all growth and chemosensitivity. The test samples were tested in triplicate on one occasion. The same stock solutions prepared for antiplasmodial evaluation were used for cytotoxicity testing. Test compounds were stored at -20°C until use. Dilutions were prepared on the day of the experiment. Emetine was used as the reference drug in all experiments. The starting concentration was 100 μg/ml, which was serially diluted in complete medium with tenfold dilutions to give six concentrations, the lowest being 0.001 μg/ml. […] The IC50 values were obtained from full dose–response curves, using a nonlinear dose–response curve fitting analysis via GraphPad Prism v.4 software. […]
As for `O=C(NO)c1ccc(Cn2c3c(c4ccccc42)C[S+]([O-])CC3)cc1` (racemic) [Compound 1j], the “SI (selectivity index) = IC50 (CHO)/IC50 (NF54)” value (from here on “SI (selectivity index) = IC50”) is listed as more than 217.

As to `O=C(NO)c1ccc(CN2c3cc(C(F)(F)F)ccc3SCC3CCCC32)cc1` (racemic) [Compound 3c], the “SI (selectivity index) = IC50” value stood at 40.

As for `O=C(NO)c1ccc(CN2c3cc(Cl)ccc3S(=O)(=O)CC3CCCC32)cc1` (racemic) [Compound 3e], the “SI (selectivity index) = IC50” value came out at 75.

As to `O=C(NO)c1ccc(CN2c3cc(C(F)(F)F)ccc3S(=O)(=O)CC3CCCC32)cc1` (racemic) [Compound 3f], the “SI (selectivity index) = IC50” value is listed as 65.

With `O=C(NO)c1ccc(Cn2c3c(c4cc(F)ccc42)CSCC3)cc1` [Compound 1c], the “SI (selectivity index) = IC50” value is recorded as 48.

On to `O=C(NO)c1cccc(Cn2c3c(c4ccccc42)CSCC3)c1` [Compound 1n], for which the “SI (selectivity index) = IC50” value is reported as more than 199.

Take `O=C(NO)c1cccc(Cn2c3c(c4cc(F)ccc42)CSCC3)c1` [Compound 1o]: the “SI (selectivity index) = IC50” value is recorded as 36.

Take `O=C(NO)c1ccc(NCc2csc3ccccc23)cc1` [Compound 2a]: the “SI (selectivity index) = IC50” value is listed as 8.

Take `O=C(NO)c1ccc(NCc2csc3ccc(Br)cc23)cc1` [Compound 2c]: the “SI (selectivity index) = IC50” value amounted to 30.

For `O=C(NO)c1ccc(NCc2csc3cc(Br)ccc23)cc1` [Compound 2g], the “SI (selectivity index) = IC50” value came out at 35.

Consider `O=C(NO)c1ccc(NCc2csc3cc(-c4ccccc4)ccc23)cc1` [Compound 2i], for which the “SI (selectivity index) = IC50” value stood at 9.

For `O=C(NO)c1ccc(CN2c3ccccc3SCC3CCCC32)cc1` (stereo not shown) [Compound 3a], the “SI (selectivity index) = IC50” value amounted to 65.

`O=C(NO)c1ccc(CN2c3ccccc3[S+]([O-])CC3CCCC32)cc1` (stereo not shown) [Compound 3g]: the “SI (selectivity index) = IC50” value is given as 138.

The record behind these values is paper PMC7099625, “Exploration of thiaheterocyclic hHDAC6 inhibitors as potential antiplasmodial agents” (Future Medicinal Chemistry, 2017).
